## Screening data, single-dose tests

Results are given as percent effect.
The controls that fix the scale are not given in the record; negative values are as filed.
This is part of a subset picked to be rich in strong results.

Mtb glucose medium: 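Whole-cell growth test on Mycobacterium tuberculosis, read after 3 days in glucose-containing 7H9 medium; the read-out is not stated. Compounds at 500 µM. The record gives no direction; compounds that gave an IC50 in retests scored well above the rest, so higher reads as more growth inhibition. About 18,000 compounds were tested under these conditions; 7.9% (about 1,400) showed 50% or more at least once.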
Mtb cholesterol medium: 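Phenotypic screen: M. tuberculosis growth, cholesterol and DPPC medium, 4 days; the read-out is not stated. Concentration: 500 µM. Higher reads as more growth inhibition (inferred: compounds with an IC50 in retests scored well above the rest). Of about 18,000 compounds tested this way, about 900 (5%) reached 50% or more in at least one test.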

CCn1cc(NC(=O)NCCN2CCCC(C)C2)cn1 (centres undefined) gave Mtb glucose medium: -1.856%.
CC(C(=O)N[C@@H](C)CO)c1ccsc1 (some centres undefined) gave Mtb glucose medium: -2.397%; Mtb cholesterol medium: -0.7292%.
CN1CCCN(Cc2ccc3c(c2)OCO3)CC1 gave Mtb glucose medium: 1.122%.
CCNC(=O)CC1CCCCN1CCOC (centres undefined) gave Mtb cholesterol medium: 7.165%.
CN1CCN(CCCNC(=O)c2ccccc2Cl)CC1 gave Mtb glucose medium: 10.34%.
Cc1cccc(NC(=O)[C@@H]2CCCN2)n1 gave Mtb cholesterol medium: -25.06%.
NC(=O)C1CCC(NC(=O)c2cc(F)cc(F)c2)CC1 (centres undefined) gave Mtb glucose medium: 14.87%.
OCC(c1ccc(Br)cc1)N1CCNCC1 (centres undefined) gave Mtb glucose medium: 31.28%.
CCN(CCC#N)C(=O)CSc1ccoc1C gave Mtb glucose medium: 13.16%.
Cc1cc(C)c(O)c(C(=O)NCCCS(N)(=O)=O)c1 gave Mtb glucose medium: 44.55%.
CC(=O)Nc1nnc(C2CCCN2)o1 (centres undefined) gave Mtb glucose medium: 3.434%.
CCN(CC)CCNC(=O)Nc1ccc2cn[nH]c2c1 gave Mtb cholesterol medium: -2.007%.
COc1ccccc1-c1noc(CN)n1 gave Mtb glucose medium: 6.649%; Mtb cholesterol medium: -4.864%.
Cc1cccc(C(C)(C)N)c1 gave Mtb glucose medium: -5.164%.
N#CC1COCCN1Cc1ccc2ncccc2c1 (centres undefined) gave Mtb glucose medium: -25.4%.
CNS(=O)(=O)c1csc(C(=O)N(CC(F)F)C2CC2)c1 gave Mtb cholesterol medium: 9.916%.
Cc1nc2ccccc2c(C)c1C(N)=O gave Mtb cholesterol medium: 5.465%.
CCCS(=O)(=O)NC1CCN(Cc2nnc(C)o2)CC1 gave Mtb glucose medium: -6.338%.
Cn1nccc1C(=O)N[C@@H]1COCC[C@@H]1OCC(N)=O gave Mtb glucose medium: 6.299%.
CN(C)C(=O)c1ccc2c(c1)CCCN2 gave Mtb glucose medium: 15.31%.
Cc1ccccc1OCC(O)CN1CCC[C@@H]1CO (some centres undefined) gave Mtb glucose medium: 52.27%.
Cc1nc2ccc(C(=O)NC3C=CS(=O)(=O)C3)cc2o1 (centres undefined) gave Mtb cholesterol medium: 0.9052%.
Cn1cc(-c2csc(CCN3CCOC3=O)n2)cn1 gave Mtb cholesterol medium: 7.756%.
Cn1nnnc1SCCOc1cccc(F)c1 gave Mtb glucose medium: 66.35%; Mtb cholesterol medium: 69.07%.
CC1CN(S(=O)(=O)CCCS(=O)(=O)N(C)C)CCN1 (centres undefined) gave Mtb cholesterol medium: -5.679%.
CC(C)CC(O)C(=O)NCc1cc2ccccc2[nH]1 (centres undefined) gave Mtb glucose medium: 54.9%.
COc1cccc(-c2cnn(CCC(N)=O)c2)c1F gave Mtb glucose medium: 46.59%; Mtb cholesterol medium: 64.19%.
CC[C@@H](O)CN1CCN(C(C)COC)CC1 (some centres undefined) gave Mtb glucose medium: 8.952%.
Cn1ccnc1CN1CCN(Cc2ccncc2)CC1 gave Mtb glucose medium: 0.7017%.
Cc1ccc(OCc2csc(CS(C)(=O)=O)n2)nc1 gave Mtb glucose medium: 5.174%; Mtb cholesterol medium: -6.258%.
O=C(NC1COC2(CCNCC2)C1)c1cnccn1 (centres undefined) gave Mtb glucose medium: 2.787%.
Nc1n[nH]c(SCc2cccnc2)n1 gave Mtb cholesterol medium: -3.995%.
CN1CCC(N(C)CC(O)COc2ccccc2)CC1 (centres undefined) gave Mtb glucose medium: 15.7%; Mtb cholesterol medium: -6.467%.
NC(CC(=O)N1CCOCC1)c1ccccc1 (centres undefined) gave Mtb glucose medium: -4.178%; Mtb cholesterol medium: -3.675%.
COc1nc(CO)c(C)cc1C gave Mtb glucose medium: 10.05%.
NC1CN(S(=O)(=O)c2ccc3c(c2)OCCO3)C1 gave Mtb glucose medium: -4.421%.
Cn1nccc1C(=O)Nc1sc2c(c1C#N)CCC2 gave Mtb cholesterol medium: -2.712%.
O=S1(=O)CCCN1c1ccccc1Br gave Mtb cholesterol medium: 9.094%.
Brc1ccc(CN2CCNCC2)nc1 gave Mtb glucose medium: 13.25%.
CCCNc1nc2c(c(=O)n(C)c(=O)n2C)n1CC gave Mtb cholesterol medium: 4.706%.
CC(C)C(=O)NC(C)c1ccc2c(c1)OCCO2 (centres undefined) gave Mtb glucose medium: 19.89%.
NC(=O)CN1CCC(c2nc(C3CCOC3)no2)CC1 (centres undefined) gave Mtb cholesterol medium: 6.379%.
N[C@@H]1CC[C@H](C(=O)NCCOCc2ccccc2)C1 gave Mtb glucose medium: 68.95%.
NC(=O)c1cnc(NC(=O)CCC2CCCO2)s1 (centres undefined) gave Mtb cholesterol medium: 3.173%.
CC(C)(C)OC(=O)N[C@@H]1CCCNC1=O gave Mtb cholesterol medium: -13.56%.
CCN(C(=O)NCc1sccc1C)C(C)CS(C)(=O)=O (centres undefined) gave Mtb glucose medium: 6.731%.
Cc1cc(NC(=O)NC2CCN(C3CC3)CC2)n(C)n1 gave Mtb glucose medium: -4.715%.

Some entries from above, unchanged:

* Cc1ccc(OCc2csc(CS(C)(=O)=O)n2)nc1 | Mtb glucose medium: 5.174%; Mtb cholesterol medium: -6.258%
* CN1CCCN(Cc2ccc3c(c2)OCO3)CC1 | Mtb glucose medium: 1.122%
* Cc1cc(NC(=O)NC2CCN(C3CC3)CC2)n(C)n1 | Mtb glucose medium: -4.715%
* NC(=O)c1cnc(NC(=O)CCC2CCCO2)s1 (centres undefined) | Mtb cholesterol medium: 3.173%
* OCC(c1ccc(Br)cc1)N1CCNCC1 (centres undefined) | Mtb glucose medium: 31.28%
* NC(=O)CN1CCC(c2nc(C3CCOC3)no2)CC1 (centres undefined) | Mtb cholesterol medium: 6.379%

From ChEMBL document CHEMBL3988442, “University of Dundee, Small-Polar-MMV Screening Library” (2021).